Measured values from several laboratories, pooled; numbers as filed in NIAID ChemDB.

All rows: target-level tests; species: HIV-1; protein: Reverse transcriptase; measure: IC50

Two numbers with a dash give a range or band. An empty or dashed field is not shown. ICn: concentration for n% inhibition. Neighbouring rows are from separate reports.

compound | strain or isolate | mutations | method | value
CCN1c2ncc(CCOc3ccc(/C=C(\C)C(=O)O)c4ccccc34)cc2C(=O)Nc2c(C)cc(Cl)nc21 |  | RT-K103N Y181C | nucleotide incorporation / radiometric | 0.1–1 µM
CCN1c2ncc(CCOc3cccc4c3CNC(=O)N4)cc2C(=O)Nc2c(C)ccnc21 | IIIB | RT-K103N Y181C | nucleotide incorporation / radiometric | >0.1 µM
O=C1OCC2OC(=O)c3cc(O)c(O)c(O)c3-c3c(O)c(O)c(O)c4c3C(=O)OC(C2OC(=O)c2cc(O)c(O)c(O)c2-c2c1cc(O)c(O)c2O)C1OC(=O)C2C4=C(O)C(=O)C23Oc2cc(O)c4c(c2C13)O[C@H](c1ccc(O)c(O)c1)C(O)C4 |  |  | nucleotide incorporation | >20 µg/mL
CC1(C)C[C@H](O)[C@H](O)[C@]23C(=O)O[C@H](O)[C@H]2C(C=O)=CC[C@@H]13 |  |  | nucleotide incorporation | >338 µM
CCN1c2ncccc2C(=O)N(C)c2ccc(-c3c[nH]c(C(=O)O)c3)nc21 | WT |  | nucleotide incorporation / radiometric | >1 µM
O=C(O[C@@H]1Cc2c(O)cc(O)cc2O[C@@H]1c1ccc(O)c(O)c1)c1cc(O)c(O)c(O)c1 |  |  | nucleotide incorporation | >20 µg/mL
CCNC(=O)NC(C)(C)C#Cc1ccc(NC(=O)CSc2nnnn2-c2ccc(C3CC3)cc2Cl)c(Cl)c1 | WT |  | PicoGreen / fluorescence | <1 µM
Nc1nc2c(ncn2[C@H]2CC[C@@H](COP(=O)(O)OP(=O)(O)OP(=O)(O)O)O2)c(=O)[nH]1 |  | RT-Y181I | nucleotide incorporation | 0.05 µM
CCc1cc(NCc2nc3c(C)ccc(C)c3o2)c(=O)[nH]c1C |  | RT-K103N Y181C | nucleotide incorporation | >282 µM
Cc1ccc(-c2c(SCC(=O)Nc3ccc(-c4ccc(CC(=O)O)cc4)cc3Cl)cnn2C)c(Cl)c1 |  | RT-K103 Y181C | PicoGreen / fluorescence | <1 µM
Cn1c(-c2cccc([N+](=O)[O-])c2)cs/c1=N\N=C1\C(=O)Nc2ccc(Cl)cc21 |  |  | RT activity / nucleotide incorporation / fluorescence | 60 µM
CCN1c2ncc(CCOc3cccc4c3CNC(=O)N4)cc2-c2nccn2-c2c(C)ccnc21 |  |  | nucleotide incorporation / radiometric | <0.05 µM
O=C(CSc1nnnn1-c1ccc(C2CC2)cc1Cl)Nc1ccc(C#CC2(CO)CC2)cc1Cl |  | RT-K103 Y181C | PicoGreen / fluorescence | <1 µM
Oc1cc(O)c2c(c1)O[C@H](c1ccc(O)c(O)c1)[C@H](O)[C@H]2c1c(O)cc(O)c2c1O[C@H](c1ccc(O)c(O)c1)[C@H](O)[C@H]2c1c(O)cc(O)c2c1O[C@H](c1ccc(O)c(O)c1)[C@H](O)C2 |  |  | nucleotide incorporation | >20 µg/mL
CC(C(=O)O)C(=O)NC(C)(C)C#Cc1ccc(NC(=O)CSc2nnnn2-c2ccc(C3CC3)cc2Cl)c(Cl)c1 | WT |  | PicoGreen / fluorescence | <1 µM
CCN1c2ncccc2C(=O)N(C)c2ccc(-c3cnn(C)c3)nc21 |  | RT-Y188L | nucleotide incorporation / radiometric | >1 µM
CC(C)(N)C#Cc1ccc(NC(=O)CSc2nnnn2-c2ccc(C3CC3)cc2Cl)c(Cl)c1F | WT |  | PicoGreen / fluorescence | <1 µM
CCN1c2ncc(CCOc3cccc4c3CN(C)C(=O)N4C)cc2C(=O)N(C)c2cccnc21 | IIIB |  | nucleotide incorporation / radiometric | <0.05 µM
CN1C(=O)c2cccnc2N(C2CC2)c2nc(-c3cc[nH]c3)ccc21 |  | RT-Y181C | nucleotide incorporation / radiometric | <1 µM
CCCCCCC(O)C(=O)O[C@H]1CC(C)(C)[C@@H]2CC=C(C=O)C3[C@@H](O)OC(=O)[C@@]32[C@H]1O |  |  | nucleotide incorporation | >238 µM
CC(C)(C#Cc1ccc(NC(=O)CSc2nnnn2-c2ccc(C3CC3)cc2Cl)c(Cl)c1)NC(=O)CN1CCC(C(=O)O)CC1 | WT |  | PicoGreen / fluorescence | <1 µM
CCN1c2ncc(CCOc3cccc4c3CS(=O)(=O)N4)cc2-c2nccn2-c2c(C)ccnc21 |  | RT-K103N Y181C | nucleotide incorporation / radiometric | 0.05–0.1 µM
CN1C(=O)c2cccnc2N(C2CC2)c2nc(-c3cn[nH]c3)ccc21 |  | RT-Y188L | nucleotide incorporation / radiometric | <1 µM
Cn1c(-c2ccccc2)cs/c1=N\N=C1\C(=O)Nc2ccc(Cl)cc21 |  |  | RT activity / nucleotide incorporation / fluorescence | 100 µM
CCN1c2ncc(CCOc3cccc4c3CNC(=O)N4C)cc2C(=O)N(C)c2cccnc21 | IIIB | RT-K103N Y181C | nucleotide incorporation / radiometric | <0.05 µM
CCN1c2ncc(CCOc3cccc4c3CNC(=O)N4)cc2-c2nc(C)cn2-c2cccnc21 |  | RT-K103N Y181C | nucleotide incorporation / radiometric | >0.1 µM
Cc1cc(C)cc(S(=O)(=O)c2c(C(=O)NC(C)C(N)=O)[nH]c3ccc(Cl)cc23)c1 |  | RT-K103N | nucleotide incorporation / radiometric | 0.5 µM
Cn1c(-c2ccc(-c3ccccc3)cc2)cs/c1=N\N=C1\C(=O)Nc2ccc(Cl)cc21 |  |  | RT activity / nucleotide incorporation / fluorescence | 9.5 µM
CCN1c2ncc(CCOc3ccc(CC(=O)O)c4ccccc34)cc2C(=O)Nc2c(C)cc(Cl)nc21 |  | RT-K103N Y181C | nucleotide incorporation / radiometric | 0.1–1 µM
CCN1c2ncccc2C(=O)N(C)c2ccc(-c3c[nH]c(C(C)=O)c3)nc21 | WT |  | nucleotide incorporation / radiometric | <1 µM
Cc1cc(C(F)(F)F)cc(-n2nnnc2SCC(=O)Nc2ccc(C#CC(C)(C)O)cc2Cl)c1Cl |  | RT-K103 Y181C | PicoGreen / fluorescence | <1 µM
O=C1OC2[C@@H](CO)O[C@@H](OC(=O)c3cc(O)c(O)c(O)c3)[C@H](OC(=O)c3cc(O)c(O)c4c3[C@@H]3C1=CC(=O)C(O)(O)C3(O)O4)[C@H]2O |  |  | nucleotide incorporation | >20 µg/mL
CCN1c2ncc(CCOc3ccc4cc(CC(=O)O)ccc4c3)cc2C(=O)N(C)c2cccnc21 |  | RT-K103N Y181C | nucleotide incorporation / radiometric | >1 µM
CN1C(=O)c2cccnc2N(C)c2nc(-c3ccc[nH]3)ccc21 |  | RT-Y181C | nucleotide incorporation / radiometric | <1 µM
CC(C)(C#Cc1ccc(NC(=O)CSc2nnnn2-c2ccc(C3CC3)cc2Cl)c(Cl)c1)C(=O)NCC1CCCO1 |  | RT-K103 Y181C | PicoGreen / fluorescence | <1 µM
CCN1c2ncc(CCOc3cccc4c3CCNC4=O)cc2-c2ncc(C)n2-c2cccnc21 |  | RT-K103N Y181C | nucleotide incorporation / radiometric | >0.1 µM
O=C(O)C[C@@H]1C(=O)O[C@H]2[C@@H]3OC(=O)c4cc(O)c(O)c(O)c4-c4c(cc(O)c(O)c4O)C(=O)OC[C@H]2O[C@@H](OC(=O)c2cc(O)c(O)c(O)c2)[C@@H]3OC(=O)c2cc(O)c(O)c3c2[C@H]1[C@H](O)C(=O)O3 |  |  | nucleotide incorporation | <20 µg/mL
Cn1c(-c2ccc([N+](=O)[O-])cc2)cs/c1=N\N=C1\C(=O)Nc2ccc(Cl)cc21 |  |  | RT activity / nucleotide incorporation / fluorescence | 26 µM
O=C(O)C1=C[C@@H](OC(=O)c2cc(O)c(O)c(O)c2)[C@@H](OC(=O)c2cc(O)c(O)c(O)c2)[C@H](OC(=O)c2cc(O)c(O)c(O)c2)C1 |  |  | nucleotide incorporation | >50 µg/mL
CC(C)(C)c1ccc(-n2nnnc2SCC(=O)Nc2ccc(OCC(=O)NCCN3CCOCC3)cc2Cl)c(Cl)c1 | WT |  | PicoGreen / fluorescence | <1 µM
CCN1c2ncc(CCOc3cccc4c3C(C)C(=O)N4C)cc2C(=O)N(C)c2cccnc21 | IIIB |  | nucleotide incorporation / radiometric | 0.05–0.1 µM
CC(C)(C#Cc1ccc(NC(=O)CSc2nnnn2-c2ccc(C3CC3)cc2Cl)c(Cl)c1)C(=O)N1CCC(C(=O)O)CC1 |  | RT-K103 Y181C | PicoGreen / fluorescence | <1 µM
CCN1c2ncc(CCOc3cccc4c3CN(Cc3ccncc3)C4=O)cc2C(=O)N(C)c2cccnc21 | IIIB |  | nucleotide incorporation / radiometric | <0.05 µM
CCOC(=O)c1cc(-c2ccc3c(n2)N(CC)c2ncccc2C(=O)N3C)c[nH]1 | WT |  | nucleotide incorporation / radiometric | <1 µM
COP(=O)(c1cc(C)cc(CCC#N)c1)c1c(C(N)=O)[nH]c2ccc(Cl)c(F)c12 |  |  | RT activity | 0.336 µM
CCN1c2ncc(CCOc3cccc4c3ccc[n+]4[O-])cc2C(=O)N(C)c2ccc(Cl)nc21 | RT -K103N | RT-K103N | nucleotide incorporation / radiometric | 0.036 µM
CN(C)c1ccc(CC(=O)Nc2ccc(NC(=O)CSc3nnnn3-c3ccc(C(C)(C)C)cc3Cl)c(Cl)c2)cc1 | WT |  | PicoGreen / fluorescence | <1 µM
CCN1c2ncccc2C(=O)N(C)c2ccc(-c3cnn(CC)c3)nc21 | WT |  | nucleotide incorporation / radiometric | <1 µM
CC(C)(C)c1ccc(-n2nnnc2SCC(=O)Nc2ccc(S(=O)(=O)NCC(=O)O)cc2Cl)c(Cl)c1 | WT |  | PicoGreen / fluorescence | <1 µM
CCN1c2ncc(CCOc3cccc4c3COC(=O)N4)cc2C(=O)Nc2c(C)ccnc21 | IIIB |  | nucleotide incorporation / radiometric | <0.05 µM
O=C(CSc1nnnn1-c1cc(C(F)(F)F)ccc1Cl)Nc1ccc(-c2ccc(OCCN3CCCCC3)cc2)cc1Cl | WT |  | PicoGreen / fluorescence | <1 µM
Cn1c(-c2ccc(-c3ccccc3)cc2)cs/c1=N\N=C1\C(=O)Nc2ccccc21 |  |  | RT activity / nucleotide incorporation / fluorescence | 35 µM
CC(C)(C)c1ccc(-n2nnnc2SCC(=O)Nc2ccc(NC(=O)Cc3ccccc3O)cc2Cl)c(Cl)c1 |  | RT-K103 Y181C | PicoGreen / fluorescence | <1 µM
CCN1c2ncc(CCOc3ccc(C(=O)O)c4ccccc34)cc2C(=O)Nc2c(C)ccnc21 |  | RT-V106A | nucleotide incorporation / radiometric | 0.1–1 µM
Cc1ccc(-n2nnnc2SCC(=O)Nc2ccc(-c3cccc(C(=O)O)c3)cc2Cl)c(Cl)c1 | WT |  | PicoGreen / fluorescence | <1 µM
O=C(O[C@@H]1O[C@@H]2COC(=O)c3cc(O)c(O)c(O)c3-c3c(cc(O)c(O)c3O)C(=O)O[C@H]([C@H]1OC(=O)c1cc(O)c(O)c(O)c1)[C@@H]2OC(=O)c1cc(O)c(O)c(O)c1)c1cc(O)c(O)c(O)c1 |  |  | nucleotide incorporation | >20 µg/mL
CC(C)(O)C#Cc1ccc(NC(=O)CSc2nnnn2-c2cc(F)cc(C(F)(F)F)c2Cl)c(Cl)c1 | WT |  | PicoGreen / fluorescence | <1 µM
CCN1C(=O)c2cc(CCOc3cccc4c3CNC(=O)N4)cnc2N(CC)c2ncccc21 | IIIB | RT-K103N Y181C | nucleotide incorporation / radiometric | >0.1 µM
CC(C)(C#Cc1ccc(NC(=O)CSc2nnnn2-c2cc(F)ccc2Cl)c(Cl)c1)C(=O)O |  | RT-K103 Y181C | PicoGreen / fluorescence | <1 µM
CCN1c2ncc(CCOc3cccc4c3CN(C)C(=O)N4C)cc2-c2ncc(C)n2-c2cccnc21 |  | RT-K103N Y181C | nucleotide incorporation / radiometric | >0.1 µM
COC(=O)CN(C)CCOc1ccc(-c2ccc(NC(=O)CSc3nnnn3-c3ccc(C(C)(C)C)cc3Cl)c(Cl)c2)cc1 | WT |  | PicoGreen / fluorescence | <1 µM
NC(=O)c1[nH]c2ccc(Cl)cc2c1S(=O)(=O)c1ccccc1 |  | RT-V179D | nucleotide incorporation / radiometric | 0.035 µM
CC(C)(C)c1ccc(-n2nnnc2SCC(=O)Nc2ccc(NS(=O)(=O)c3cccs3)cc2Cl)c(Cl)c1 | WT |  | PicoGreen / fluorescence | <1 µM
CC(C)=CCOc1cc(NC(=S)c2ccoc2C)ccc1Cl |  |  |  | 0.01 µM

For reference, 3 entries again:

compound,strain or isolate,mutations,method,value
CN1C(=O)c2cccnc2N(C2CC2)c2nc(-c3cc[nH]c3)ccc21,,RT-Y181C,nucleotide incorporation / radiometric,<1 µM
CCN1c2ncc(CCOc3cccc4c3COC(=O)N4)cc2C(=O)Nc2c(C)ccnc21,IIIB,,nucleotide incorporation / radiometric,<0.05 µM
Cn1c(-c2ccc(-c3ccccc3)cc2)cs/c1=N\N=C1\C(=O)Nc2ccccc21,,,RT activity / nucleotide incorporation / fluorescence,35 µM